{"source": "patent US20140017336A1", "about": "“CO-ADMINISTRATION OF ARSENIC COMPOUNDS AND ANTI-HERPES VIRUS ANTI-VIRALS” (priority 2011, published 2014)", "key": {"[1]": {"test_system": "EBV BMRF1 mRNA", "assay_type": "cell-based, Epstein-Barr virus", "settings": "10 nM ATO and/or 40 μM GCV"}, "[2]": {"test_system": "EBV Zta mRNA", "assay_type": "cell-based, Epstein-Barr virus", "settings": "10 nM ATO and/or 40 μM GCV"}}, "data": [{"substance": "arsenic trioxide [ATO]", "values": [{"measurement": "BMRF1 mRNA expression over 7 days", "setting": "[1]", "value": "increased levels of BMRF1 mRNA after ATO treatment lagged behind Zta expression"}, {"measurement": "Zta mRNA expression over 7 days", "setting": "[2]", "value": "increased Zta mRNA expression as early as day 3"}]}]}
